{
  "source": "paper PMC9862759",
  "about": "(Viruses, 2023)",
  "tested_on": "SARS-CoV-2 pseudovirus",
  "data": [
    {"smiles": "COc1c(O)cc2oc(-c3ccccc3)cc(=O)c2c1O", "note": "[compound 8, Oroxylin A]", "values": [
      {"measurement": "fold more potent antiviral entry activity than chrysin (1)", "result": "at least 2.7 fold"}
    ]},
    {"smiles": "O=c1cc(-c2ccccc2)oc2cc(O[C@@H]3O[C@H](CO[C@@H]4O[C@H](CO)[C@@H](O)[C@H](O)[C@H]4O)[C@@H](O)[C@H](O)[C@H]3O)c(O)c(O)c12", "note": "[compound 11, Oroxin B]", "values": [
      {"measurement": "decrease in antiviral activity compared to baicalein (7)", "result": "more than 50%"}
    ]},
    {"smiles": "O=c1c(O)c(-c2ccc(O)c(O)c2)oc2cc(O)cc(O)c12", "note": "[compound 15, Quercetin]", "values": [
      {"measurement": "fold stronger antiviral activity than EC (22)", "result": 8.6, "unit": "fold"}
    ]},
    {"smiles": "O=C(O[C@@H]1Cc2c(O)cc(O)cc2O[C@@H]1c1ccc(O)c(O)c1)c1cc(O)c(O)c(O)c1", "note": "[compound 24, (-)-Epicatechin gallate]", "values": [
      {"measurement": "fold stronger antiviral activity than EC (22)", "result": 2.5, "unit": "fold"}
    ]},
    {"smiles": "O=C(O[C@@H]1Cc2c(O)cc(O)cc2O[C@@H]1c1cc(O)c(O)c(O)c1)c1cc(O)c(O)c(O)c1", "note": "[compound 25, (-)-Epigallocatechin gallate]", "values": [
      {"measurement": "fold more potent antiviral entry activity than EGC (23)", "result": 2.3, "unit": "fold"}
    ]}
  ]
}
